Measured values from several laboratories, pooled; numbers as filed in NIAID ChemDB.

Shared fields: whole-cell or culture tests; species: Plasmodium falciparum; read-out: EC50

Neighbouring rows are from separate reports.

{"structure": "C[C@H]1CCc2c([nH]c3ccccc23)[C@@]2(N1)C(=O)Nc1ccc(Cl)cc12", "strain": "KAE609R-2", "changes": "KAE609-resistant (T418N/P990R)", "read by": "SYBR Green / fluorescence", "value": "0.236 µM"}
{"structure": "CCN(CC)CCN1C(=O)c2ccccc2NC1c1ccc(N(C)C)cc1", "strain": "3D7", "read by": "luciferase", "value": "2.08 µM"}
{"structure": "CCOC(=O)C1=C(O)/C(=C\\c2cc(C)n(C3CCNCC3)c2C)N=C1C", "strain": "K1", "changes": "Chloroquine/pyrimethamine-resistant", "value": "12 µM"}
{"structure": "CCN(CC)CCN1C(=O)c2ccccc2NC1c1ccc(Cl)cc1", "strain": "3D7", "read by": "luciferase", "value": "3.92 µM"}
{"structure": "CCC[C@H]1O[C@@H]2CC(=O)O[C@@H]2C2=C1C(=O)c1c(O)cccc1C2=O", "strain": "HB3", "read by": "SYBR Green", "value": "0.6 µM"}
{"structure": "O=C1c2ccccc2NC(c2ccc(Cl)cc2)N1C1CC1", "strain": "3D7", "read by": "luciferase", "value": ">20 µM"}
{"structure": "Cc1ccc(C(C)C)cc1.NC(=S)N/N=C/c1ccccc1.[Cl][Ru+]", "strain": "Dd2", "read by": "LDH", "value": "5.1 µM"}
{"structure": "O=C(CCc1ccccc1)c1ccccc1OCC(O)CN1CCN(c2ccccc2)CC1", "strain": "K1", "value": "0.05 µM"}
{"structure": "CCCCCC[C@]12Cc3cc(OC)c(OC)cc3[C@@H](O1)c1c(c3ccccc3n(C)c1=O)O2", "strain": "7G8 GB4", "read by": "SYBR Green / fluorescence", "value": "1 µM"}
{"structure": "CCN(CC)CCN1C(=O)c2ccccc2NC1c1ccc(Br)cc1", "strain": "3D7", "read by": "luciferase", "value": "0.34 µM"}
{"structure": "Cn1cc(O)c(=O)cc1CNCCCNc1ccnc2cc(Cl)ccc12", "strain": "K1", "read by": "radiometric", "value": "0.27 µM"}
{"structure": "CCN(CC)CCCC(C)Nc1ccnc2cc(Cl)ccc12", "strain": "Dd2", "read by": "LDH / absorbance", "value": "0.1235 µM"}
{"structure": "O=C(CCNc1ccnc2cc(Cl)ccc12)N[C@H]1C(=O)N(C2CCCCCC2)[C@H]1/C=C/c1ccccc1", "strain": "W2", "changes": "Chloroquine-resistant", "read by": "flow cytometry", "value": "0.3781 µM"}
{"structure": "CC1CC2CCC3CC(CCc4ccccc4)N=C(N1)N32", "strain": "D6", "read by": "LDH", "value": "7.62 µM"}
{"structure": "NC(=O)C(CCCC[NH3+])NC(=O)CCCCCCCCCCCNC(=O)C(N)CCCC[NH3+]", "strain": "FCR3", "read by": "hypoxanthine uptake", "value": "99 µM"}
{"structure": "CC(C)=CCCC1CC2CCCC3CC(C)NC(=N1)N23", "strain": "D6", "read by": "LDH", "value": "6.54 µM"}
{"structure": "COC(=O)C1=C(C(=O)OC)C2N(Cc3ccccc3)c3ccccc3[C@@]23C[C@@H](C(=O)OC)N(S(=O)(=O)c2ccc(C(F)(F)F)cc2)C3=N1", "strain": "7G8 GB4", "read by": "SYBR Green / fluorescence", "value": "1.7 µM"}
{"structure": "CCN(CC)CCCC(C)Nc1ccnc2cc(Cl)ccc12", "strain": "W2", "read by": "broth dilution / absorbance", "value": "0.525 µM"}
{"structure": "CCN(CC)CCN1C(=O)c2ccccc2NC1c1ccc(F)cc1", "strain": "3D7", "read by": "luciferase", "value": "1.69 µM"}
{"structure": "O=C(O)CCc1cccc2c1B(O)OC2", "strain": "3D7", "value": "0.044 µM"}
{"structure": "CN(C)c1ccc2nc3ccc(=[N+](C)C)cc-3sc2c1", "strain": "Clinical isolates", "value": "0.0033 µM"}
{"structure": "Cc1c(O)c2ccccc2c2c1sc(NC1CCCCC1)[n+]2CCCN1CCN(C)CC1", "strain": "Dd2", "read by": "hypoxanthine uptake", "value": "0.17 µM"}
{"structure": "O=c1cc(CNCCNc2ccnc3cc(Cl)ccc23)n(C2CC2)cc1O", "strain": "K1", "read by": "radiometric", "value": "0.36 µM"}
{"structure": "O=C(O)COc1ccc(/C=C/C(=O)c2ccccc2)cc1", "strain": "W2", "read by": "fluorescence", "value": ">10 µM"}
{"structure": "CC(C)CN1C(=O)[C@H](NC(=O)CCCNc2ccnc3cc(Cl)ccc23)[C@@H]1/C=C/c1ccccc1", "strain": "W2", "changes": "Chloroquine-resistant", "read by": "flow cytometry", "value": "0.6756 µM"}
{"structure": "C[C@H]1Cc2c([nH]c3cc(Cl)c(F)cc23)[C@@]2(N1)C(=O)Nc1ccc(Cl)cc12", "strain": "KAE678R-3", "changes": "KAE678-resistant (I203M/I263V)", "read by": "SYBR Green / fluorescence", "value": "0.011 µM"}
{"structure": "CC(C)Nc1nc2cc(-c3ccc(Cl)cc3)sc2c(=O)[nH]1.O=C(O)/C=C/C(=O)O", "strain": "3D7", "read by": "SYBR Green", "value": "0.168 µM"}
{"structure": "O=c1cc(CNCCCNc2ccnc3cc(Cl)ccc23)n(C2CC2)cc1O", "strain": "3D7", "read by": "radiometric", "value": "0.2 µM"}
{"structure": "CCCCCCCCCCCC(=O)NC(CCCC[NH3+])C(=O)NC(CCCC[NH3+])C(=O)CCCCCC(=O)NCCCCCC(=O)NC(CCCC[NH3+])C(N)=O", "strain": "NF54", "read by": "hypoxanthine uptake", "value": ">10 µM"}
{"structure": "C[C@H]1[C@@H](OC(=O)CCC(=O)O)O[C@@H]2O[C@@]3(C)CC[C@H]4[C@H](C)CC[C@@H]1[C@@]24OO3", "strain": "K1", "read by": "SYBR Green", "value": "<0.1 µM"}
{"structure": "CNC[C@@H](Cc1ccc2ccccc2c1)NC[C@H](Cc1ccc2ccccc2c1)NCC1(c2ccccc2)CC1", "strain": "3D7", "value": "0.02 µg/mL"}
{"structure": "CCOC(=O)C1=C(C(=O)OCC)C2N(Cc3ccccc3C(F)(F)F)c3ccccc3[C@@]23C[C@@H](C(=O)OC)N(S(=O)(=O)c2c(C)noc2C)C3=N1", "strain": "CP250", "read by": "SYBR Green / fluorescence", "value": "0.6 µM"}
{"structure": "CC(C)=CCC[C@@H]1C[C@@H]2CC[C@@H]3C[C@H](CCC=C(C)C)NC(=N1)N32", "strain": "W2", "read by": "LDH", "value": "7.59 µM"}
{"structure": "NC(=O)C(CCCC[NH3+])NC(=O)CCCCCCCNC(=O)C(N)CCCC[NH3+]", "strain": "FCR3", "read by": "hypoxanthine uptake", "value": "260 µM"}
{"structure": "COC(=O)C1=C(C(=O)OC)C2N(Cc3ccccc3)c3ccccc3[C@@]23C[C@@H](C(=O)OC)N(S(=O)(=O)c2ccc(Br)cc2)C3=N1", "strain": "CP250", "read by": "SYBR Green / fluorescence", "value": "2.3 µM"}
{"structure": "CCCCC[C@@H]1C[C@@H]2CC[C@@H]3C[C@H](CCCCC)NC(=N1)N32", "strain": "W2", "read by": "LDH", "value": "3.6 µM"}
{"structure": "NC(=S)N/N=C/c1ccc2ccccc2c1.[Cl][Ru+].c1ccccc1", "strain": "NF54", "read by": "LDH", "value": "6.5 µM"}
{"structure": "CCN1C(=NCc2cccc(Cl)c2)N[C@H](c2cccc(C(F)(F)F)c2)C(C(=O)OC)=C1C", "strain": "GB4", "read by": "SYBR Green / fluorescence", "value": "0.2 µM"}
{"structure": "Cn1nc(C(F)(F)F)c(-c2ccc(Br)cc2)c1NC(=O)Nc1ccc(F)cc1F", "strain": "KAE678R-2", "changes": "KAE678-resistant (A184S/P990R)", "read by": "SYBR Green / fluorescence", "value": "0.568 µM"}
{"structure": "O=C(Cn1ccnc1[N+](=O)[O-])NCc1ccccc1", "strain": "K1", "value": "0.125 µM"}
{"structure": "Cn1cc(O)c(=O)cc1CNCCNc1ccnc2cc(Cl)ccc12", "strain": "3D7", "read by": "radiometric", "value": "0.58 µM"}
{"structure": "CCN(CC)CCCC(C)Nc1ccnc2cc(Cl)ccc12", "strain": "K14", "value": "11 µM"}
{"structure": "CCCCCCCC(=O)NC(CCCC[NH3+])C(=O)NCCCCCCCC(=O)NC(CCCC[NH3+])C(N)=O", "strain": "FCR3", "read by": "hypoxanthine uptake", "value": "16 µM"}
{"structure": "Cc1ccc(N(C)C(=O)c2c[n+]3c(cn2)CN=C3c2ccc(C(F)(F)F)cc2)nn1", "read by": "SYBR Green", "value": ">10 µM"}
{"structure": "CCN(CC)CCCC(C)Nc1ccnc2cc(Cl)ccc12", "strain": "Dd2", "conditions": "72 h", "value": "0.01 µg/mL"}
{"structure": "CCCCCCCCCCCCOc1cccc(C2(O)NC(=O)c3cnccc32)c1", "read by": "broth dilution / radiometric", "value": ">2500 µM"}
{"structure": "CCN(CCO)CCCC(C)Nc1ccnc2cc(Cl)ccc12", "strain": "3D7", "value": "0.0128 µM"}
{"structure": "C=CCC[C@@H]1C[C@@H]2CCC[C@@H]3C[C@H](CCC=C)NC(=N1)N32", "strain": "D6", "read by": "LDH", "value": "6.27 µM"}
{"structure": "COc1ccc([C@]23Cc4cc(C#N)ccc4[C@@H](O2)c2c(cc(-c4ccccc4)oc2=O)O3)cc1", "strain": "HB3 Dd2", "read by": "SYBR Green / fluorescence", "value": "2.9 µM"}
{"structure": "CCc1nc2nc(C)cc(Nc3cccc(Cl)c3)n2n1", "strain": "3D7", "value": "0.79 µM"}
{"structure": "NC(=S)N/N=C/c1ccc2ccccc2c1", "strain": "Dd2", "read by": "LDH", "value": ">10 µg/mL"}
{"structure": "NCCCCNc1ccnc2cc(Cl)ccc12", "strain": "K1", "read by": "LDH", "value": "2.74 µM"}
{"structure": "CCCCCCCCCCCC(=O)NC(CCCC[NH3+])C(=O)NCCCCCCCCCCCC(=O)NC(CCCC[NH3+])C(N)=O", "strain": "FCR3", "read by": "hypoxanthine uptake", "value": "1.5 µM"}
{"structure": "Cc1ccc(C2Nc3ccccc3C(=O)N2CCCCN2CCOCC2)cc1", "strain": "3D7", "read by": "luciferase", "value": ">20 µM"}
{"structure": "NCCCCCCCCCCCC(=O)NC(CCCC[NH3+])C(=O)NCCCCCCCCCCCC(=O)NC(CCCC[NH3+])C(=O)NCCCCCCCCCCCC(=O)NC(CCCC[NH3+])C(=O)NCCCCCCCCCCCC(=O)NC(CCCC[NH3+])C(N)=O", "strain": "FCR3", "read by": "hypoxanthine uptake", "value": "2.2 µM"}
{"structure": "CCCCN1C(=O)[C@@H](NCCNc2ccnc3cc(Cl)ccc23)[C@H]1/C=C/c1ccccc1", "strain": "W2", "changes": "Chloroquine-resistant", "read by": "flow cytometry", "value": "0.6118 µM"}
{"structure": "Cc1c(-c2ccc(-c3ccc(OC(C)(C)C)cc3)nc2)[nH]c2ccccc2c1=O", "strain": "TM902CB", "read by": "SYBR Green", "value": "0.156 µM"}

7 of the rows above, restated:

{"structure": "CCCCCCCCCCCCOc1cccc(C2(O)NC(=O)c3cnccc32)c1", "read by": "broth dilution / radiometric", "value": ">2500 µM"}
{"structure": "CCN(CC)CCCC(C)Nc1ccnc2cc(Cl)ccc12", "strain": "Dd2", "conditions": "72 h", "value": "0.01 µg/mL"}
{"structure": "NC(=S)N/N=C/c1ccc2ccccc2c1.[Cl][Ru+].c1ccccc1", "strain": "NF54", "read by": "LDH", "value": "6.5 µM"}
{"structure": "NC(=S)N/N=C/c1ccc2ccccc2c1", "strain": "Dd2", "read by": "LDH", "value": ">10 µg/mL"}
{"structure": "O=C(O)COc1ccc(/C=C/C(=O)c2ccccc2)cc1", "strain": "W2", "read by": "fluorescence", "value": ">10 µM"}
{"structure": "CCN(CC)CCN1C(=O)c2ccccc2NC1c1ccc(F)cc1", "strain": "3D7", "read by": "luciferase", "value": "1.69 µM"}
{"structure": "O=c1cc(CNCCNc2ccnc3cc(Cl)ccc23)n(C2CC2)cc1O", "strain": "K1", "read by": "radiometric", "value": "0.36 µM"}

ECn: concentration that inhibits the pathogen or its effect by n%.